The numbers were not newly measured in paper PMC8099913, “FoldAffinity: binding affinities from nDSF experiments” (Scientific Reports, 2021), which cites them from elsewhere.

The structures appear in SMILES notation.

The test system of this data set is pknG. To be noted: read-out: reported IC50; ref 1 (supplement); cited from earlier work.

For `NC(=O)c1c(NC(=O)C2CC2)sc2c1CCCC2`, the IC50 is 390 nM.

The IC50 is the concentration at which inhibition is half-maximal.
